The subject of the series is IVIG. Put plainly: Prevalence of anti-IgG hydrolase antibodies in IVIG (ELISA and Western blot). It counts as binding, human. The conditions noted are these: IVIG 5 μg/mL. (In general: ELISA stands for enzyme-linked immunosorbent assay.)

B1: IdeZ: IgG cysteine protease produced by Streptococcus equi ssp. zooepidemicus (protein)
chain: DDYQRNATEAYAKEVPHQITSVWTKGVTPLTPEQFRYNNEDVIHAPYLAHQGWYDITKAFDGKDNLLCGAATAGNMLHWWFDQNKTEIEAYLSKHPEKQKIIFNNQELFDLKAAIDTKDSQTNSQLFNYFRDKAFPNLSARQLGVMPDLVLDMFINGYYLNVFKTQSTDVNRPYQDKDKRGGIFDAVFTRGDQTTLLTARHDLKNKGLNDISTIIKQELTEGRALALSHTYANVSISHVINLWGADFNAEGNLEAIYVTDSDANASIGMKKYFVGINAHGHVAISAKKIEGENIGAQVLGLFTLSSGKDIWQKLS
Regarding B1, the “Binding of IVIG antibodies to the enzyme (pre-existing anti-enzyme antibodies)” value (from here on “Binding of IVIG antibodies to the enzyme”) is recorded as “significantly less antibody binding”.

B2: IdeS: Immunoglobulin G-degrading enzyme of S. pyogenes, IgG-specific cysteine protease (protein)
chain: DSFSANQEIRYSEVTPYHVTSVWTKGVTPPANFTQGEDVFHAPYVANQGWYDITKTFNGKDDLLCGAATAGNMLHWWFDQNKDQIKRYLEEHPEKQKINFNGEQMFDVKEAIDTKNHQLDSKLFEYFKEKAFPYLSTKHLGVFPDHVIDMFINGYRLSLTNHGPTPVKEGSKDPRGGIFDAVFTRGDQSKLLTSRHDFKEKNLKEISDLIKKELTEGKALGLSHTYANVRINHVINLWGADFDSNGNLKAIYVTDSDSNASIGMKKYFVGVNSAGKVAISAKEIKEDNIGAQVLGLFTLSTGQDSWNQTN
Take B2: the “Binding of IVIG antibodies to the enzyme” value is on record as “prevalent”.

B3: IdeSORK2.0: SEQ ID NO: 2 (N terminal 312 amino acids of IdeSORK) with added N terminal methionine and C-terminal His6; 319 amino acids (protein)
chain: MSKRKLLKKIEKKDTSSVLTQKKQTKTLWADGVQVDDKDFKPSTENFGTNYLAAEYGIGKGYYDINKKFDGTDDDLCSGVVAANQLHWWLDRNKDYIEKYRQQSKDNGVTIGNTDIFELNKLHDEDQSNFFDFIKKSFGNKFLQPERLLNMYINGYGYLTSQDKAKTSQPSPSKLNFFQKVFKNNLLTDKTPINDIDEFSSQTKNALQNHKVLAVSFASIKNRGLGHVVTVWGADFDENGKVVALYVTDSDDRSKNIGNAKLGMKKLRIEVSAQDSSTIKLTGFEDKNSGGSLRHLYSLSTGEQIWKKYFEETHHHHHH
modifications: (IdeSORK2.0) Protein of SEQ ID NO 2 engineered to include an additional N terminal methionine and a C-terminal protein purification tag - His6
Turning to B3, the “Binding of IVIG antibodies to the enzyme” value was “even less”. Also, the “Binding of IVIG antibodies to the enzyme” value (listed as IdesSORK2.0) is listed as “very little reactivity with IVIG”.

The values above are taken from patent US20250320480A1, “Immunoglobulin Cleaving Enzyme” (priority 2021, published 2025).
